Test results published in PubChem BioAssay AID720580 (National Center for Advancing Translational Sciences (NCATS), 2013).
The list shows a part of the results, in another mix than the full data. Results filed as inconclusive are left out. Activity calls are given as the source filed them. Calls follow the shape of the full dose curve; tested in A549 cells.

Assay: qHTS for Stage-Specific Inhibitors of Vaccinia Orthopoxvirus: Venus Reporter Primary qHTS; also: nearly all actives have a fitted effect of over 30% in size
Conditions: Vaccinia virus Venus reporter expression, fluorescence; at 36.5 µM (top of the series)
% is scaled to controls: 0 for no effect and ±100 for the full control effect.

| SMILES | activity change, negative = inhibition |
| --- | --- |
| CCC(c1nnnn1C(C)(C)C)N1CCC(n2c(=O)[nH]c3ccccc32)CC1 (stereo unspecified) | inactive: -8.6% |
| CCCCn1nnnc1C(c1ccnc2ccccc12)N1CCC(n2c(=O)[nH]c3ccccc32)CC1 (stereo unspecified) | inactive: -9.49% |
| CCCCn1nnnc1C(c1ccccc1OC(F)(F)F)N1CCC(n2c(=O)[nH]c3ccccc32)CC1 (stereo unspecified) | inactive: -15.5% |
| CC(C)c1ccc(NC2CCN(C(=O)OC(C)(C)C)CC2)cc1 | inactive: -13.6% |
| CN(C)c1cccc(C(=O)NCC2(N3CCCCC3)CCCCC2)c1 | inactive: -10.2% |
| O=[N+]([O-])c1cc([N+](=O)[O-])c(OC2CCCCC2O)c([N+](=O)[O-])c1 (stereo unspecified) | inactive: -3.69% |
| COc1ccc(CN(CCCl)CCCl)cc1Cl | inactive: -5.74% |
| O=C(NCC1(N2CCOCC2)CCCCC1)c1cc(=O)[nH]c2ccccc12 | inactive: -15.4% |
| COc1cc(C(=O)NCC2(N3CCCCC3)CCCCC2)ccc1OC(F)F | inactive: 0.797% |
| CC(C)c1ccc(C(=O)NCC2(N3CCOCC3)CCCCC2)cc1 | inactive: -12.1% |
| CN1CCN(CCOC(=O)C(O)(c2ccccc2)c2ccccc2)CC1 | inactive: 0.23% |
| CCCCn1nnnc1C(c1cccc2ccccc12)N1CCC(n2c(=O)[nH]c3ccccc32)CC1 (stereo unspecified) | inactive: -14.2% |
| O=[N+]([O-])c1cc([N+](=O)[O-])c(NCC2CCS(=O)(=O)C2)c([N+](=O)[O-])c1 (stereo unspecified) | inactive: -28.2% |
| O=C(NCC1(N2CCCCC2)CCCCC1)c1cccc(C(F)(F)F)c1 | inactive: 0% |
| CCCOc1cccc(C(=O)NCC2(N3CCOCC3)CCCCC2)c1 | inactive: -8.28% |
| O=c1[nH]c2ccccc2n1C1CCN(C(c2ccccc2OC(F)(F)F)c2nnnn2C2CCCC2)CC1 (stereo unspecified) | inactive: -7.56% |
| N#CC1(Nc2ccccc2)CCN(CCc2ccccc2)CC1 | inactive: -6.9% |
| CCOc1ccc(C(=O)NCC2(N3CCOCC3)CCCCC2)cc1 | inactive: 4.49% |
| CSc1ccc(C(=O)NCC2(N3CCOCC3)CCCCC2)cc1 | inactive: -12.8% |
| O=C(NCC1(N2CCCCC2)CCCCC1)c1ccc(OC(F)F)cc1 | inactive: -3.61% |
| CC(C)(C)n1nnnc1C(c1ccccc1OC(F)(F)F)N1CCC(n2c(=O)[nH]c3ccccc32)CC1 (stereo unspecified) | inactive: -17.7% |
